Anti-infective test results gathered from many reports (values: NIAID ChemDB through PubChem).

Shared fields: target-level tests; organism: HIV-1; protein: Protease; read by: substrate cleavage; endpoint: IC50

Neighbouring rows are from separate reports.

COC(=O)CN(C)C(=O)CN(C)C(=O)CN(C(=O)CN(Cc1ccccc1)C(=O)C[C@@]1(O)C2C3C4C2[C@@](O)(CC(=O)N(CC(=O)N(CC(=O)N(C)CC(=O)N(C)CC(=O)OC)C(C)C)Cc2ccccc2)C2C1[C@H]3C[C@H]42)C(C)C ; result: 6.5 µM
CC(C)(C)OC(=O)NN(C[C@H](O)[C@H](Cc1ccccc1)NC(=O)OCc1ccccc1)CN1C=CSC1 ; result: 0.035 µM
CC(C)(C)NC(=O)[C@@H]1CCCN1C(=O)[C@@H](O)[C@H](Cc1ccccc1)NC(=O)[C@H](CC(N)=O)NC(=O)OCc1ccccc1 ; result: 0.02 µM
CC(C)C[C@H](NC(=O)[C@@H](N)CO)C(=O)N[C@@H](CC(N)=O)C(=O)N[C@@H](Cc1ccccc1)C(=O)Cc1ccccc1 ; result: >20 µM
C[C@@H](O)[C@H](NC(=O)c1cc(=O)c2ccccc2[nH]1)C(=O)N[C@@H](Cc1ccccc1)[C@H](O)[C@@H](O)[C@H](Cc1ccccc1)NC(=O)c1cc(=O)c2ccccc2[nH]1 ; result: 2 µM
CC(C)C[C@H](NC(=O)[C@@H](N)COCc1ccccc1)C(=O)N[C@@H](CC(N)=O)C(=O)N[C@@H](Cc1ccccc1)C(=O)Cc1ccccc1 ; result: 45 µM
CC(C)c1nc(CN(C)C(=O)N[C@@H](C(=O)NN(Cc2ccc(O)cc2)C[C@H](O)[C@H](Cc2ccccc2)NC(=O)OCc2cncs2)C(C)C)cs1 ; result: <0.0005 µM
O=C(N[C@@H](Cc1ccccc1)C(=O)NC(CCO)NC(=O)[C@@H](Cc1ccccc1)NC(=O)OCC1c2ccccc2-c2ccccc21)OCC1c2ccccc2-c2ccccc21 ; result: >10 µM
CC(C)(C)OC(=O)NN(Cc1cnco1)C[C@H](O)[C@H](Cc1ccccc1)NC(=O)OCc1ccccc1 ; result: 0.016 µM
CC(=O)N[C@@H](Cc1ccccc1)C(=O)N[C@@H](CCC(=O)O)C(=O)N[C@@H](Cc1ccccc1)[C@@H](O)[C@H](O)[C@H](Cc1ccccc1)NC(=O)COC(C)(C)C ; result: 0.6 µM
O=C(N[C@@H](CO)NC(=O)[C@H](Cc1ccc(O)cc1)NC(=O)OCc1ccccc1)OCc1ccccc1 ; result: 0.59 µM
CC(C)N(CC(=O)N(CC(=O)NC[C@@]1(O)C2C3C4C2[C@@](O)(CNC(=O)CN(Cc2ccccc2)C(=O)CN(C(=O)CN(C)C(=O)OCc2ccccc2)C(C)C)C2C1[C@H]3C[C@H]42)Cc1ccccc1)C(=O)CN(C)C(=O)OCc1ccccc1 ; result: 0.075 µM
O=C(NC(CO)NC(=O)[C@@H]1Cc2ccccc2CN1C(=O)OCc1ccccc1)[C@@H]1Cc2ccccc2CN1C(=O)OCc1ccccc1 ; result: 0.85 µM
Cc1nc(COC(=O)N[C@H](C(=O)N[C@@H](Cc2ccccc2)[C@H](O)CN2CCN(Cc3ccc4c(c3)OCO4)C[C@H]2C(=O)NC(C)(C)C)C(C)C)cs1 ; result: ~0.0005 µM
CC(=O)N[C@@H](Cc1c[nH]c2ccccc12)C(=O)N[C@H](C(=O)N[C@@H](Cc1ccccc1)[C@H](O)[C@@H](O)[C@H](Cc1ccccc1)NC(=O)[C@@H](NC(=O)[C@H](Cc1c[nH]c2ccccc12)NC(C)=O)C(C)C)C(C)C ; result: 0.006 µM
COC(=O)N[C@H](C(=O)N[C@@H](Cc1ccccc1)[C@@H](O)CN(Cc1ccc(F)cc1)NC(=O)[C@@H](NC(=O)OC)C(C)C)C(C)C ; result: 0.042 µM
CC(C)[C@H](NC(=O)N(C)Cc1cncs1)C(=O)N[C@@H](Cc1ccccc1)[C@H](O)CN1CCN(Cc2cncs2)C[C@H]1C(=O)NC(C)(C)C ; result: 0.0005 µM
CC(C)[C@H](N)C(=O)N[C@H](C(=O)N[C@@H](Cc1ccccc1)[C@@H](O)C(=O)N[C@@H](Cc1ccccc1)C(=O)N[C@H](C(=O)N[C@H](C(N)=O)C(C)C)C(C)C)C(C)C ; setting: pH 5.75 ; result: 0.35 µM
CC(C)(C)OC(=O)N[C@@H](Cc1ccccc1)C(=O)NC(CO)NC(=O)[C@H](Cc1ccccc1)NC(=O)OC(C)(C)C ; result: 8.8 µM
CC(C)(C)OC(=O)NN(Cc1ccc(F)cc1)C[C@H](O)[C@H](Cc1ccccc1)NC(=O)OCc1ccccc1 ; result: 0.013 µM
CC[C@H](C)[C@H](NC(=O)[C@@H]1CCCN1C(=O)[C@H](O)[C@H](CC1CCCCC1)NC(=O)[C@H](CC(N)=O)NC(=O)CCc1ccccc1)C(=O)N[C@H](C(N)=O)C(C)C ; setting: pH 5.75 ; result: >10 µM
O=C(N[C@@H](Cc1ccccc1)C(=O)NC(CO)NC(=O)[C@H](Cc1ccccc1)NC(=O)OCC1c2ccccc2-c2ccccc21)OCC1c2ccccc2-c2ccccc21 ; result: 0.46 µM
COC(=O)N[C@H](C(=O)N[C@@H](Cc1ccccc1)[C@@H](O)CN(Cc1ccc(OC)cc1)NC(=O)[C@@H](NC(=O)OC)C(C)C)C(C)C ; result: 0.016 µM
N[C@@H](Cc1ccccc1)C(=O)NC(CO)NC(=O)[C@@H](N)Cc1ccccc1 ; result: >10 µM
CC(C)c1nc(CN(C)C(=O)N[C@H](C(=O)N[C@@H](Cc2ccccc2)[C@H](O)CN2CCN(Cc3ccccc3)C[C@H]2C(=O)NC(C)(C)C)C(C)C)cs1 ; result: <0.0005 µM
CC(C)[C@H](NC(=O)OCc1ccccc1)C(=O)N[C@@H](Cc1ccccc1)[C@H](O)[C@@H](O)[C@H](Cc1ccccc1)NC(=O)[C@@H](NC(=O)[C@H](Cc1c[nH]c2ccccc12)NC(=O)COc1ccccc1)C(C)C ; result: 0.015 µM
CC(C)(C)OC(=O)NN(Cc1cnoc1)C[C@H](O)[C@H](Cc1ccccc1)NC(=O)OCc1ccccc1 ; result: 0.011 µM
COC(=O)N[C@H](C(=O)N[C@@H](Cc1ccccc1)[C@@H](O)CN(CC1CCCCC1)NC(=O)[C@@H](NC(=O)OC)C(C)C)C(C)C ; result: 0.84 µM
CC(C)c1nc(COC(=O)N[C@@H](C(=O)N[C@@H](Cc2ccccc2)[C@H](O)CN2CCN(Cc3cncs3)C[C@H]2C(=O)NC(C)(C)C)C(C)C)cs1 ; result: 0.027 µM
COC(=O)N[C@H](C(=O)N[C@@H](Cc1ccccc1)[C@@H](O)CN(Cc1ccc(C#N)cc1)NC(=O)[C@@H](NC(=O)OC)C(C)C)C(C)C ; result: 0.062 µM
CC(C)c1nc(CN(C)C(=O)N[C@H](C(=O)N[C@@H](Cc2ccccc2)[C@H](O)CN2CC[C@@H](OCc3cncs3)C[C@H]2C(=O)NC(C)(C)C)C(C)C)cs1 ; result: <0.0005 µM
O=C(NC(CO)NC(=O)C1Cc2ccccc2CN1C(=O)OCc1ccccc1)OCc1ccccc1 ; result: 4.9 µM
CC(C)(C)OC(=O)N[C@@H](Cc1ccccc1)C(=O)NC(CO)NC(=O)[C@@H](Cc1ccccc1)NC(=O)OC(C)(C)C ; result: >10 µM

Repeating the first 2 entries:

COC(=O)CN(C)C(=O)CN(C)C(=O)CN(C(=O)CN(Cc1ccccc1)C(=O)C[C@@]1(O)C2C3C4C2[C@@](O)(CC(=O)N(CC(=O)N(CC(=O)N(C)CC(=O)N(C)CC(=O)OC)C(C)C)Cc2ccccc2)C2C1[C@H]3C[C@H]42)C(C)C ; result: 6.5 µM
CC(C)(C)OC(=O)NN(C[C@H](O)[C@H](Cc1ccccc1)NC(=O)OCc1ccccc1)CN1C=CSC1 ; result: 0.035 µM

ICn is the concentration giving n% inhibition.